Anti-infective test results gathered from many reports (values: NIAID ChemDB through PubChem).

Shared fields: tests in culture; agent: HIV-1; method: cytopathic effect / MTT; measure: EC50

An empty or dashed field is not shown. Conditions beyond the fields shown may differ between rows. ECn is the concentration giving n% inhibition of infection, replication or growth.

structure | strain | mutations | cells | value
Nc1ccn([C@H]2CC[C@@H](CO)O2)c(=O)n1 | A17 | Pyridinone- and TIBO-resistant | MT-2 | ~0.1 µg/mL
CC(C)=CCN1Cc2c(Cl)cccc2NC(=O)C1C | - | - | MT-4 | 4.3 µM
Cc1cn([C@H]2C[C@@H]3NC(NC#N)=NC[C@H]3O2)c(=O)[nH]c1=O | IIIB | - | CEM | >100 µg/mL
Cc1cc(C)cc(Cc2cc(=O)[nH]c(OC3CCCCC3)n2)c1 | IIIB | - | MT-4 | 1.1 µM
COc1ccc(C(OC[C@H]2O[C@@H](n3cc(C)c(=O)[nH]c3=O)C[C@@H]2O)(c2ccccc2)c2ccc(OC)cc2)cc1 | - | - | MT-4 | >100 µg/mL
CCC(C)Nc1nc(C(C)c2c(F)cccc2F)cc(=O)[nH]1 | - | RT-Y181C | MT-4 | 1.4 µM
N#Cc1cccc(CN2C(=O)N(Cc3cccc(C#N)c3)[C@H](Cc3ccccc3)[C@H](O)[C@H]2CCc2ccccc2)c1 | RF | - | MT-2 | <1.6 µM
Cc1cccc(Cc2cc(=O)[nH]c(OC3CCCC3)n2)c1 | IIIB | - | MT-4 | 2.8 µM
Nc1nc2c(ncn2[C@H]2C=C[C@@H](CO)C2)c(=O)[nH]1 | IIIB | - | MT-2 | 1.1 µM
O=S(=O)(O)OCC1OC2OC3C(COS(=O)(=O)O)OC(OC4C(COS(=O)(=O)O)OC(OC5C(COS(=O)(=O)O)OC(OC6C(COS(=O)(=O)O)OC(OC7C(COS(=O)(=O)O)OC(OC8C(COS(=O)(=O)O)OC(OC9C(COS(=O)(=O)O)OC(OC1C(OS(=O)(=O)O)C2OS(=O)(=O)O)C(OS(=O)(=O)O)C9OS(=O)(=O)O)C(OS(=O)(=O)O)C8OS(=O)(=O)O)C(OS(=O)(=O)O)C7OS(=O)(=O)O)C(OS(=O)(=O)O)C6OS(=O)(=O)O)C(OS(=O)(=O)O)C5OS(=O)(=O)O)C(OS(=O)(=O)O)C4OS(=O)(=O)O)C(OS(=O)(=O)O)C3OS(=O)(=O)O | NL43)(JM3100r) | - | MT-4 | >125 µg/mL
CC(C)(C)NC(=O)[C@@H]1CSCN1C(=O)[C@@H](O)[C@H](Cc1ccccc1)NC(=O)[C@H](CCC(F)(F)F)NC(=O)COc1cccc2cnccc12 | IIIB | - | MT-4 | 0.03 µg/mL
N#Cc1cccc(CN2C(=O)N(Cc3cccc(C#N)c3)[C@H](Cc3ccc(F)cc3)[C@H](O)[C@H]2CCc2ccc(F)cc2)c1 | RF | - | MT-2 | <1.56 µM
CCCNc1nc(C(C)c2c(F)cccc2F)c(C)c(=O)[nH]1 | IIIB | - | MT-4 | 0.01 µM
Cc1cn([C@H]2C[C@H](Nc3n[nH]c(N)n3)[C@@H](CO)O2)c(=O)[nH]c1=O | IIIB | - | CEM | >100 µg/mL
CC(C)C1NCc2cc(Cl)ccc2N(C)C1=O | - | - | MT-4 | >100 µM
CCCCNc1nc(Cc2c(F)cccc2F)c(C)c(=O)[nH]1 | IIIB | - | MT-4 | 0.01 µM
CN(C(=O)COc1cccc2cnccc12)[C@@H](CC(F)(F)F)C(=O)N[C@@H](Cc1ccccc1)[C@H](O)C(=O)N1CSC[C@H]1C(=O)NC(C)(C)C | IIIB | - | MT-4 | 0.25 µg/mL
Nc1cc(CN2C(=O)N(Cc3ccc(F)c(N)c3)[C@H](Cc3ccccc3)[C@H](O)[C@H]2CCc2ccccc2)ccc1F | RF | - | MT-2 | <0.036 µM
Cc1cn([C@H]2C[C@H](N=[N+]=[N-])[C@@H](CO)O2)c(=O)[nH]c1=O | NL4-3 | - | MT-4 | 0.0002 µg/mL
Nc1ncnc2c1ncn2C1CCC1 | IIIB | - | MT-4 | >100 µM
Cc1c(C(C)(C)C)s/c(=N\S(=O)(=O)c2cc(Cl)ccc2NS(C)(=O)=O)n1C | IIIB | - | MT-4 | >25 µM
Nc1nc(N)c2ncn([C@H]3CO[C@@H](CO)O3)c2n1 | IIIB | - | MT-2 | 10 µM
C[C@@H]1NCc2cc(Cl)ccc2NC1=O | - | - | MT-4 | >8.1 µM
O=C1N[C@H](CCc2ccccc2)[C@@H](O)[C@@H](Cc2ccccc2)N1Cc1cccc(O)c1 | RF | - | MT-2 | <4.8 µM
C=C1C[C@@H](n2cnc3c(N)ncnc32)[C@@H]1CO | IIIB | - | MT-4 | >100 µM
CCC(C)Nc1nc(Cc2c(F)cccc2F)c(C)c(=O)[nH]1 | IIIB | - | MT-4 | 0.06 µM
Cc1c(C(C)(C)C)s/c(=N\S(=O)(=O)c2cccc(O)c2)n1C | IIIB | - | MT-4 | >25 µM
CC(C)=CCN1Cc2cc(Cl)ccc2NC(=O)C1C | - | - | MT-4 | 5.5 µM
CCCCC#CCSc1ccccc1OC(C)=O | HXB2 WT | - | MT-2 | 10 µM
COc1nc(Cc2cc(C)cc(C)c2)c(C)c(=O)[nH]1 | IIIB | - | MT-4 | >387 µM
Cc1cn([C@H]2C[C@H](NC(N)=O)[C@@H](CO)O2)c(=O)[nH]c1=O | IIIB | - | CEM | >100 µg/mL
Nc1cccc(CN2C(=O)N(Cc3ccc4[nH]ncc4c3)[C@H](CCc3ccccc3)[C@@H](O)[C@H]2Cc2ccccc2)c1 | RF | - | MT-2 | <0.016 µM
Cc1cc(C)cc(Cc2nc(OC3CCCC3)[nH]c(=O)c2C)c1 | IIIB | - | MT-4 | 29 µM
O=C1c2ccccc2C(=O)N1CCOC(=S)N(C(=O)c1ccco1)c1ccc([N+](=O)[O-])cc1 | A17 | RT-K103N Y181C | MT-4 | >100 µM
Cc1cn([C@H]2C=C[C@@H](CO)O2)c(=O)[nH]c1=O | IIIB | - | MT-2 | 1.3 µM
O=C1c2ccccc2C(=O)N1CCOC(=S)N(C(=O)c1cccs1)c1ccc(Cl)cc1 | A17 | RT-K103N Y181C | MT-4 | >100 µM
C=C1[C@@H](CO)C[C@H]1n1cnc2c(N)ncnc21 | IIIB | - | MT-4 | 22 µM
CCOCn1c(Sc2ccccc2)c(CC)c(=O)[nH]c1=O | A012D | - | MT-4 | 0.015 µM
CC(C)C1C(=S)Nc2ccc(Cl)cc2CN1C(=O)OC(C)(C)C | - | - | MT-4 | 7.9 µM
Cc1c(C(C)(C)C)s/c(=N\S(=O)(=O)c2ccccc2O)n1C | IIIB | - | MT-4 | 2.3 µM
CC(c1cc(=O)[nH]c(NC2CCCC2)n1)c1c(F)cccc1F | - | RT-Y181C | MT-4 | 0.5 µM
COc1ccc(CN[C@@H](C(=O)N[C@H](C(=O)NCc2nc3ccccc3[nH]2)C(C)C)[C@H](O)[C@H](Cc2ccccc2)NC(=O)[C@@H](NC(=O)[C@@](C)(O)c2ccccc2)C(C)(C)C)cc1 | IIIB | - | MT-4 | 0.038 µM
CC(C)C1C(=O)N(C)c2ccc(Cl)cc2CN1C(=O)OC(C)(C)C | - | - | MT-4 | >100 µM
N/C(=N\O)c1cccc(CN2C(=O)N(Cc3cccc(N)c3)[C@H](Cc3ccccc3)[C@H](O)[C@H]2CCc2ccccc2)c1 | RF | - | MT-2 | <0.017 µM
Nc1ncnc2c1ncn2C1CC(CO)(CO)C1 | IIIB | - | MT-4 | >500 µM
CC1NCc2ccccc2NC1=O | - | - | MT-4 | >8.5 µM
Cc1c(C(C)C)s/c(=N\S(=O)(=O)c2cc(C#N)ccc2C#N)n1C | IIIB | - | MT-4 | 0.0018 µM
Cc1ccnc2c1NC(=O)c1cccnc1N2C1CC1 | WT | - | MT-4 | 0.4 µM
Cc1c(Sc2ccccc2)n(COCCO)c(=O)[nH]c1=O | IIIB | - | MT-4 | 7 µM
N/C(=N/O)c1cccc(CN2C(=O)N(Cc3cccc(/C(N)=N\O)c3)[C@H](Cc3ccc(F)cc3)[C@@H](O)[C@H]2CCc2ccc(F)cc2)c1 | RF | - | MT-2 | <0.049 µM
Cc1c(O)cccc1C(=O)N[C@@H](CSc1ccccc1)[C@H](O)CN1C[C@H]2CCCC[C@H]2C[C@H]1C(=O)NC(C)(C)CO | IIIB | - | MT-2 | 0.0856 µM
O=C1c2ccccc2C(=O)N1CCOC(=S)N(C(=O)c1cccnc1Cl)c1ccc(Cl)cc1 | IIIB | RT-K103R V179D P225H | MT-4 | >100 µM
O=c1[nH]cnc2c1ncn2[C@H]1CC[C@@H](CO)O1 | IIIB | - | MT-2 | 18 µM
CCCCNc1nc(C(C)c2c(F)cccc2F)cc(=O)[nH]1 | - | RT-Y181C | MT-4 | 0.6 µM
CC(C)=CCN1Cc2cc(Cl)cc3[nH]c(=S)n(c23)C[C@@H]1C | 13MB1 (TIBO-resistant RT L100I) | RT-L100I | MT-4 | 0.4 µg/mL
C#C[C@@]1(CO)C=C[C@H](n2cc(C)c(=O)[nH]c2=O)O1 | IIIB WT | - | MT-4 | 0.1 µM
Nc1nc2c(ncn2[C@H]2CO[C@@H](CO)O2)c(=O)[nH]1 | - | RT-Q151M V75I | MT-2 | >50 µM
COc1ccccc1S(=O)(=O)/N=c1\sc(C(C)(C)C)c(C)n1C | IIIB | - | MT-4 | 10 µM
Cc1c(O)cccc1C(=O)N[C@@H](CSc1ccccc1)[C@H](O)CN1C[C@H]2CCCC[C@H]2C[C@H]1C(=O)NC(C)(C)C | IIIB | - | MT-2 | 0.0602 µM
CC(=O)Oc1ccc(/C=C/C(=O)O[C@H](C(=O)O)[C@H](OC(=O)/C=C/c2ccc(OC(C)=O)c(OC(C)=O)c2)C(=O)O)cc1OC(C)=O | NL4-3 | AR177-resistant | MT-4 | >93 µM
CC(C)CN(C[C@@H](O)[C@H](Cc1ccccc1)NC(=O)O[C@H]1CCOC1)S(=O)(=O)c1ccc(N)cc1 | LAI | - | MT-4 | 0.021 µM
Cc1cn([C@H]2C[C@H](N=[N+]=[N-])[C@@H](CO)O2)c(=O)[nH]c1=O | - | RT-Q151M | MT-2 | 2.4 µM
Fc1cccc(F)c1C1SCc2nc3ccccc3n21 | IIIB | RT-K103N | CEM | 15.6 µM

Again, the opening 7 rows:

Nc1ccn([C@H]2CC[C@@H](CO)O2)c(=O)n1 ; strain: A17 ; mutations: Pyridinone- and TIBO-resistant ; cells: MT-2 ; value: ~0.1 µg/mL
CC(C)=CCN1Cc2c(Cl)cccc2NC(=O)C1C ; cells: MT-4 ; value: 4.3 µM
Cc1cn([C@H]2C[C@@H]3NC(NC#N)=NC[C@H]3O2)c(=O)[nH]c1=O ; strain: IIIB ; cells: CEM ; value: >100 µg/mL
Cc1cc(C)cc(Cc2cc(=O)[nH]c(OC3CCCCC3)n2)c1 ; strain: IIIB ; cells: MT-4 ; value: 1.1 µM
COc1ccc(C(OC[C@H]2O[C@@H](n3cc(C)c(=O)[nH]c3=O)C[C@@H]2O)(c2ccccc2)c2ccc(OC)cc2)cc1 ; cells: MT-4 ; value: >100 µg/mL
CCC(C)Nc1nc(C(C)c2c(F)cccc2F)cc(=O)[nH]1 ; mutations: RT-Y181C ; cells: MT-4 ; value: 1.4 µM
N#Cc1cccc(CN2C(=O)N(Cc3cccc(C#N)c3)[C@H](Cc3ccccc3)[C@H](O)[C@H]2CCc2ccccc2)c1 ; strain: RF ; cells: MT-2 ; value: <1.6 µM